Assay results taken from US6680054B1 (priority 1996, dated 2004).

Test system: influenza A virus
Format: cell-based

## NC(=O)c1ncn([C@@H]2O[C@H](CO)[C@@H](O)[C@H]2O)n1 [Ribavirin]
  Therapeutic Index (MTC divided by ID50): >12.22-31.98
